{
  "source": "patent US20250325672A1",
  "about": "(priority 2020, published 2025)",
  "molecules": {"B1": {"name": "BCY15343 (peptide)", "peptide": "ACPYVAGRGTCLLCA", "modifications": "not checked"}},
  "data": [
    {"target": "Biotinylated 2019-nCoV (COVID-19) S1 protein (16-685), His, Avitag (SARS-CoV-2), P0DTC2", "test": "SPR, Biacore T200, geomean", "conditions": "not given", "units": {"Kd": "nM"}, "values": [
      {"molecule": "B1", "Kd": 2240}
    ]},
    {"target": "Biotinylated SARS-CoV-2 (COVID-19) S protein RBD, His, Avitag ™ (Severe acute respiratory syndrome coronavirus 2, UniProt P0DTC2)", "test": "not given", "type": "binding", "conditions": "read-out: Geomean Average KD", "units": {"Kd": "nM"}, "values": [
      {"molecule": "Ac-(SEQ ID NO: 186) [BCY19309]", "Kd": 186},
      {"molecule": "Ac-(SEQ ID NO: 188) [BCY19533]", "Kd": 6510},
      {"molecule": "Ac-(SEQ ID NO: 189) [BCY19534]", "Kd": 5230},
      {"molecule": "Ac-(SEQ ID NO: 190) [BCY19535]", "Kd": 565},
      {"molecule": "Ac-(SEQ ID NO: 191) [BCY19536]", "Kd": 7570},
      {"molecule": "Ac-(SEQ ID NO: 192) [BCY19537]", "Kd": 2650},
      {"molecule": "Ac-(SEQ ID NO: 193) [BCY19538]", "Kd": 2100},
      {"molecule": "Ac-(SEQ ID NO: 194) [BCY19539]", "Kd": 2080},
      {"molecule": "Ac-(SEQ ID NO: 195) [BCY19541]", "Kd": 2170},
      {"molecule": "Ac-(SEQ ID NO: 196) [BCY19542]", "Kd": 1950},
      {"molecule": "Ac-(SEQ ID NO: 197) [BCY19543]", "Kd": 2940},
      {"molecule": "Ac-(SEQ ID NO: 198) [BCY19544]", "Kd": 6650},
      {"molecule": "Ac-(SEQ ID NO: 199) [BCY19545]", "Kd": 1570},
      {"molecule": "Ac-(SEQ ID NO: 200) [BCY19546]", "Kd": 3520},
      {"molecule": "Ac-(SEQ ID NO: 201) [BCY19547]", "Kd": 9160},
      {"molecule": "Ac-(SEQ ID NO: 202) [BCY19548]", "Kd": 2990},
      {"molecule": "Ac-(SEQ ID NO: 203)-[K(PYA)] [BCY19599]", "Kd": 61.6},
      {"molecule": "Ac-(SEQ ID NO: 205)-[K(PYA)] [BCY19638]", "Kd": 29.5},
      {"molecule": "Ac-(SEQ ID NO: 206)-[K(PYA)] [BCY19639]", "Kd": 72},
      {"molecule": "Ac-(SEQ ID NO: 209)-[K(PYA)] [BCY19654]", "Kd": 115},
      {"molecule": "Ac-(SEQ ID NO: 210)-[K(PYA)] [BCY19655]", "Kd": 169},
      {"molecule": "Ac-(SEQ ID NO: 211)-[K(PYA)] [BCY19658]", "Kd": 96.6}
    ]},
    {"target": "wild-type (WT) S1 domain of the SARS-COV-2 Spike Protein (Severe acute respiratory syndrome coronavirus 2, UniProt P0DTC2)", "test": "not given", "type": "binding", "conditions": "not given", "units": {"Kd": "nM"}, "values": [
      {"molecule": "A-(SEQ ID NO: 22)-A-[Sar6]-[KFl] [BCY15310]", "Kd": 199},
      {"molecule": "A-(SEQ ID NO: 37)-A-[Sar6]-[KFl] [BCY15318]", "Kd": 717},
      {"molecule": "A-(SEQ ID NO: 80)-A [BCY16313]", "Kd": 396},
      {"molecule": "A-(SEQ ID NO: 81)-A [BCY16314]", "Kd": 518},
      {"molecule": "A-(SEQ ID NO: 82)-A [BCY16315]", "Kd": 777},
      {"molecule": "A-(SEQ ID NO: 83)-A [BCY16316]", "Kd": "> 1000"},
      {"molecule": "A-(SEQ ID NO: 84)-A [BCY16318]", "Kd": 602},
      {"molecule": "A-(SEQ ID NO: 85)-A [BCY16319]", "Kd": 726},
      {"molecule": "A-(SEQ ID NO: 86)-A [BCY16320]", "Kd": 360},
      {"molecule": "A-(SEQ ID NO: 87)-A [BCY16321]", "Kd": 991},
      {"molecule": "A-(SEQ ID NO: 89)-A [BCY16541]", "Kd": "> 1000"},
      {"molecule": "A-(SEQ ID NO: 90)-A [BCY16535]", "Kd": "> 1000"},
      {"molecule": "A-(SEQ ID NO: 91)-A [BCY16536]", "Kd": 424},
      {"molecule": "A-(SEQ ID NO: 92)-A [BCY16537]", "Kd": "> 963"},
      {"molecule": "A-(SEQ ID NO: 113)-A [BCY16543]", "Kd": "> 1000"},
      {"molecule": "A-(SEQ ID NO: 114)-A [BCY16542]", "Kd": 511},
      {"molecule": "Ac-(SEQ ID NO: 24) [BCY16544]", "Kd": 921},
      {"molecule": "Ac-(SEQ ID NO: 88)-A-[Sar6]-[KFl] [BCY16679]", "Kd": 339},
      {"molecule": "Ac-A-(SEQ ID NO: 22)-A [BCY16538]", "Kd": 229},
      {"molecule": "Ac-A-(SEQ ID NO: 24)-A [BCY16545]", "Kd": 641},
      {"molecule": "Ac-A-(SEQ ID NO: 37)-A [BCY16322]", "Kd": 722}
    ]}
  ]
}
